A mixed list of measured activities; the numbers were collected in NIAID ChemDB.

Common to all: whole-cell or culture tests; organism: HIV-1; cell line: MT-4; measure: EC50

Rows are shuffled and stem from different studies. ECn: concentration that inhibits the pathogen or its effect by n%.

Nc1ncnc2c1ncn2[C@H]1C=C[C@@H](CO)[C@@H]1CO ; strain: IIIB ; method: XTT ; result: 0.2 µg/mL
CC1=C(CCC(=O)O)c2cc3nc(cc4[nH]c(cc4C)cc4[nH]c(cc1n2)cc4C)C(C)=C3CCC(=O)O ; strain: LAV ; method: cytopathic effect ; result: <10 µg/mL
Nc1ccn(N2CC[C@@H](CO)C2)c(=O)n1 ; strain: RF ; result: >100 µg/mL
Cc1c(Cl)nc(Nc2ccc(C#N)cc2)nc1Oc1ccc2ccccc2c1Br ; strain: IIIB ; mutations: K103N + Y181C ; method: MTT ; result: 16.53 µM
Cc1cc(/C=C/C#N)cc(C)c1Oc1nc(NC2CCN(Cc3ccc([N+](=O)[O-])cc3)CC2)nc2ccsc12 ; strain: IIIB ; mutations: NNRTI-resistant (RT F227L V106A) ; method: MTT ; result: 0.106 µM
COc1cccc2c1N(C(=O)OC(C)C)C(CSC)C(=S)N2 ; strain: IIIB ; mutations: RT-Y181C ; method: cytopathic effect / XTT ; result: 0.07 µM
COc1ncnc2c1ncn2O[C@@H]1CO[C@@H](CO)O1 ; result: >100 µg/mL
COc1cc(/C=C2\C(=O)Nc3ccc(S(=O)(=O)N(CC(C)C)C[C@@H](O)[C@H](Cc4ccccc4)NC(=O)O[C@H]4CO[C@H]5OCC[C@H]54)cc32)ccc1O ; strain: LAI ; method: cytopathic effect / MTT ; result: 0.269 µM
CCCn1c(Sc2ccccc2)c([N+](=O)[O-])c(=O)[nH]c1=O ; strain: IIIB ; result: >72.9 µg/mL
Cc1ccc(S(=O)(=O)n2c(=O)[nH]c3ccc(Cl)cc32)cc1C ; strain: IIIB ; result: 0.006 µM
CCc1c(Cc2cc(OC)cc(OC)c2)[nH]c(=S)[nH]c1=O ; strain: A17 ; mutations: K103N + Y181C ; method: MTT ; result: >100 µM
CC(C)CC(NC(=O)[C@H](C)NC(=O)C[C@H](O)C(CC(C)C)NC(=O)[C@@H](NC(=O)[C@H](Cc1ccc(O)cc1)NC(=O)OCc1ccccc1)C(C)C)[C@@H](O)CC(=O)Nc1ccn([C@H]2CS[C@@H](CO)O2)c(=O)n1 ; method: syncytia ; result: 50 µM
Cn1c(Sc2cc[n+]([O-])cc2)c([N+](=O)[O-])c(=O)n(C)c1=O ; strain: IIIB ; result: >0.275 µg/mL
Nc1ncnc2c1ncn2[C@H]1C[C@](N)(CO)CO1 ; result: >100 µg/mL
CC(Cc1ccccc1)NC(=S)Nc1nccs1 ; strain: IIIB ; method: cytopathic effect / XTT ; result: 1.2 µM
COCCOCCOCCOCCOCCOCCOCCOCCOCCOCCOCCOCCOCCOCCOCCOCCOCCOCCOCCOCCOCCOCCOCCOCCOCCOCCOCCOCCOCCOCCOCCOCCOCCOCCOCCOCCOCCOCCOCCOCCOCCOCCOCCOCCOC(=O)CCC(=O)O[C@H](CN1C[C@H]2CCCC[C@H]2C[C@H]1C(=O)NC(C)(C)C)[C@H](Cc1ccccc1)NC(=O)[C@H](CC(N)=O)NC(=O)c1ccc2ccccc2n1 ; strain: IIIB ; method: cytopathic effect / MTT ; result: 0.032 µM
CC(C)CN(C[C@@H](O)[C@H](Cc1ccccc1)NC(=O)O[C@H]1CO[C@H]2OCC[C@H]21)S(=O)(=O)c1ccc2c(c1)/C(=C/c1ccc(-c3ccccn3)cc1)C(=O)N2 ; strain: F ; mutations: PR-L10F M46I M71V I84V ; method: cytopathic effect / MTT ; result: 0.158 µM
CSCCC(NC=O)C(=O)NC(CC(C)C)C(=O)NC(Cc1ccccc1)C(=O)Nc1ccn([C@H]2CS[C@@H](CO)O2)c(=O)n1 ; method: syncytia ; result: 8 µM
CCc1c(C)c2cc3[nH]c(cc4nc(c(C)c5nc(cc1[nH]2)C(C)=C5)C(CCC(=O)O)=C4C)c(C)c3CC ; strain: LAV ; method: cytopathic effect ; result: <10 µg/mL
Cc1c(Oc2ccnc(Nc3ccc(C#N)cc3)n2)ccc2ccccc12 ; strain: IIIB ; mutations: WT ; method: MTT ; result: 0.003 µM
CCCn1c(Cl)c([N+](=O)[O-])c(=O)[nH]c1=O ; strain: IIIB ; result: >62.4 µg/mL
COc1cc(O)c2c(c1)C(=O)c1c(cc3c(c1O)-c1c(cc(C)c(C(=O)N[C@H](C)C(=O)O)c1O)[C@H](O[C@@H]1O[C@H](C)[C@H](N)[C@H](O[C@@H]4OC[C@@H](O)[C@H](O)[C@@H]4O)[C@H]1O)[C@H]3O)C2=O ; strain: IIIB ; method: antigen ; result: <10 µg/mL
C=CCN1C(=O)c2cccn2S(=O)(=O)c2ccc(Cl)cc21 ; method: cytopathic effect / MTT ; result: >32 µM
Cc1cc(/C=C/C#N)cc(C)c1Oc1nc(NC2CCN(Cc3ccc(Cl)cc3)CC2)nc2ccsc12 ; strain: RES056 ; method: MTT ; result: 0.195 µM
S=C(NCc1ccco1)Nc1ccc(Cl)cc1 ; strain: IIIB ; method: MTT ; result: >36.7 µM
CC1=C(CCC(=O)O)c2cc3nc(cc4[nH]c(cc5[nH]c(cc1n2)c(C)c5C(C)O)c(C)c4C(C)O)C(C)=C3CCC(=O)O ; strain: LAV ; method: cytopathic effect ; result: <10 µg/mL
CCCN(CCC)CCCCN(C)C(=O)c1ccc(CN(Cc2ncc[nH]2)Cc2ncn[nH]2)cc1 ; strain: IIIB ; method: MTT ; result: 0.002 µM
Cc1cc(C)cc(Cc2c(C(C)C)c(=O)[nH]c(=O)n2COCCOc2ccccc2)c1 ; strain: IIIB ; method: MTT ; result: >0.01 µM
Cc1cc(/C=C/C#N)cc(C)c1Oc1nc(NC2CCN(Cc3ccccc3C#N)CC2)nc2ccsc12 ; strain: IIIB ; mutations: NNRTI-resistant (RT Y181C) ; method: MTT ; result: 0.0346 µM
CCc1c(Cc2ccc(Cl)cc2)n(COCc2ccccc2)c(=O)[nH]c1=O ; strain: IIIB ; result: 5 µM
COCCCCCCCCCCCC(=O)O ; strain: IIIB ; method: syncytia ; result: 6.8 µM
COc1cnc(NC(=O)CSc2nnc(N)s2)[n+](OC)c1 ; strain: IIIB ; method: p24 / ELISA / antigen ; result: 7.5 µM
[N-]=[N+]=N[C@@]1(CO)CO[C@@H](n2cnc3c(N)ncnc32)C1 ; result: >100 µg/mL
O=C(CSc1ccccn1)Nc1ccccc1 ; strain: IIIB ; method: p24 / ELISA / antigen ; result: >100 µM
C=Cc1c(C)c2cc3[nH+]c(c4c5[n-]c(cc6[nH+]c(cc1[n-]2)C(C)=C6CC)c(C)c5C(=O)C4C(=O)OC)[C@@H](CCC(=O)O/C=C(\C)CCCC(C)CCCC(C)CCCC(C)C)[C@@H]3C.[Mg+2] ; strain: LAV ; method: cytopathic effect ; result: <10 µg/mL
CC(C)=CCC[C@]1(C)C=Cc2c(ccc3c2C(=O)C(O)=C(C2=C(C4=C(O)C(=O)c5c(ccc6c5C=C[C@@](C)(CCC=C(C)C)O6)C4=O)C(=O)c4c(ccc5c4C=C[C@@](C)(CCC=C(C)C)O5)C2=O)C3=O)O1 ; strain: RF ; method: cytopathic effect / XTT ; result: ≤0.02 µM
CC(C)=CCN1C(=O)c2cccn2S(=O)(=O)c2ccc(Cl)cc21 ; method: cytopathic effect / MTT ; result: >300 µM
CCC1=C(C)c2cc3nc(cc4cc(C)c(cc5[nH]c(cc1n2)c(C)c5CC)[nH]4)C(CCC(=O)O)=C3C ; strain: LAV ; method: cytopathic effect ; result: <10 µg/mL
Fc1ccc(NC(=S)NCc2ccco2)cc1Cl ; strain: IIIB ; method: MTT ; result: >35.8 µM
CCc1c(NC)nc(Nc2ccc(C#N)cc2)nc1Oc1ccc2cc(Br)ccc2c1Br ; strain: IIIB ; mutations: K103N + Y181C ; method: MTT ; result: 3.06 µM
CCN1C(=O)c2cccn2S(=O)(=O)c2ccc(Cl)cc21 ; method: cytopathic effect / MTT ; result: 13 µM
CC(C)C[C@H](NC(=O)[C@@H](NC(=O)[C@@H](N)Cc1c[nH]c2ccccc12)C(C)C)[C@@H](O)CC(=O)NC(Cc1ccccc1)c1ccccc1 ; method: syncytia ; result: 5 µM
Cc1cc(/C=C/C#N)cc(C)c1Oc1nc(NC2CCN(Cc3ccccn3)CC2)nc2ccsc12 ; strain: IIIB ; mutations: NNRTI-resistant (RT Y181C) ; method: MTT ; result: 0.00923 µM
COc1ccc(C(O)c2ccccc2C(=O)Nc2ccccc2OC)cc1 ; strain: LAI ; result: >100 µM
CCC(=O)c1ccc(F)c([C@@H]2C[C@@H]2NC(=O)Nc2ccc(Cl)cn2)c1O ; strain: IIIB ; mutations: RT-L100I ; method: cytopathic effect / XTT ; result: 0.21 µM
COc1cnc(NC(=O)CSc2ccccn2)[n+](OC)c1 ; strain: IIIB ; method: p24 / ELISA / antigen ; result: >100 µM
Cc1ccc(Cl)cc1NC(=S)NC1CCN(Cc2ccccc2)CC1 ; strain: IIIB ; method: MTT ; result: >37 µM
CCOCn1c(Cc2ccccc2)c(C(C)C)c(=O)[nH]c1=O ; strain: N119 ; mutations: Y181C ; method: MTT ; result: >20 µM
COc1ccccc1NC(=O)c1ccccc1Oc1ccc(OCO)c(OCO)c1 ; strain: LAI ; result: 102.5 µM
COC(=O)CCC1=C(C)c2cc3[nH]c(cc4[nH]c(cc5nc(cc1n2)C(C)=C5CCC(=O)OC)c(C)c4CCC(=O)OC)c(CCC(=O)OC)c3C ; strain: LAV ; method: cytopathic effect ; result: <10 µg/mL
O=c1[nH]cnc2c1ncn2O[C@@H]1CS[C@@H](CO)O1 ; result: >100 µg/mL
CCOCn1c(Cc2cc(OC)cc(OC)c2)c(C(C)C)c(=O)[nH]c1=O ; strain: A17 ; mutations: K103N + Y181C ; method: MTT ; result: 90 µM
COc1ccccc1C(=O)Nc1ccccc1C(O)c1ccc([N+](=O)[O-])cc1 ; strain: LAI ; result: 26.6 µM
COc1ccccc1/C=C1\C(=O)Nc2ccc(S(=O)(=O)N(CC(C)C)C[C@@H](O)[C@H](Cc3ccccc3)NC(=O)O[C@H]3CO[C@H]4OCC[C@H]43)cc21 ; strain: LAI ; method: cytopathic effect / MTT ; result: 0.078 µM
CN1C(=O)c2cccn2S(=O)(=O)c2ccc(Cl)cc21 ; method: cytopathic effect / MTT ; result: 20 µM
CCc1c(Cl)nc(Nc2ccc(C#N)cc2)nc1Oc1ccc2cc(C#N)ccc2c1 ; strain: IIIB ; mutations: K103N + Y181C ; method: MTT ; result: 25.25 µM
COC(=O)c1ccc(C(O)c2ccccc2NC(=O)c2ccccc2OC)cc1 ; strain: LAI ; result: >100 µM
CC(C)(C)NC(=O)[C@@H]1C[C@@H]2CCCC[C@@H]2CN1C[C@@H](OC(=O)COc1ccc(CC(NC(=O)OC(C)(C)C)C(=O)OC(C)(C)C)cc1)[C@H](Cc1ccccc1)NC(=O)[C@H](CC(N)=O)NC(=O)c1ccc2ccccc2n1 ; strain: IIIB ; method: cytopathic effect / MTT ; result: 0.035 µM
Cc1cn([C@H]2C=C[C@@H](CO)O2)c(=O)[nH]c1=O ; result: 0.28 µM
CCc1c(NC)nc(Nc2ccc(C#N)cc2)nc1Oc1ccc2ccccc2c1 ; strain: IIIB ; mutations: K103N + Y181C ; method: MTT ; result: 33.37 µM
O=c1[nH]cnc2c1ncn2O[C@H]1CO[C@@H](CO)O1 ; result: >100 µg/mL
[N-]=[N+]=N[C@@]1(CO)COC(n2ccc(N)nc2=O)C1 ; result: >100 µg/mL
S=C(NCc1ccco1)Nc1ccc(I)cc1 ; strain: IIIB ; method: MTT ; result: >36.5 µM
CC(C)(C)NC(=O)[C@@H]1CN(Cc2cncs2)CCN1C[C@@H](O)C[C@@H](Cc1ccccc1)C(=O)N[C@H]1c2ccccc2C[C@H]1O ; strain: IIIB ; method: cytopathic effect / MTT ; result: 0.016 µM
CCOCn1c(Cc2cc(OC)cc(OC)c2)c(CC)c(=O)[nH]c1=O ; strain: N119 ; mutations: Y181C ; method: MTT ; result: 30.5 µM
CC(=O)OCc1ccc(/C=C2\C(=O)Nc3ccc(S(=O)(=O)N(CC(C)C)C[C@@H](O)[C@H](Cc4ccccc4)NC(=O)O[C@H]4CO[C@H]5OCC[C@H]54)cc32)o1 ; strain: LAI ; method: cytopathic effect / MTT ; result: 0.056 µM
S=C(Nc1ccc(I)cc1)NC1CCN(Cc2ccccc2)CC1 ; strain: IIIB ; method: MTT ; result: >7 µM
Cc1cc2ccccc2cc1Oc1ccnc(Nc2ccc(C#N)cc2)n1 ; strain: IIIB ; mutations: WT ; method: MTT ; result: 0.002 µM
Cc1cc(/C=C/C#N)cc(C)c1Oc1nc(NC2CCN(Cc3ccc(Br)cc3)CC2)nc2ccsc12 ; strain: IIIB ; mutations: NNRTI-resistant (RT F227L V106A) ; method: MTT ; result: 0.161 µM
CCc1c(Cc2cc(OC)cc(OC)c2)[nH]c(=O)[nH]c1=O ; strain: A17 ; mutations: K103N + Y181C ; method: MTT ; result: >100 µM

4 of the rows above, restated:

COc1cnc(NC(=O)CSc2ccccn2)[n+](OC)c1 ; strain: IIIB ; method: p24 / ELISA / antigen ; result: >100 µM
COCCOCCOCCOCCOCCOCCOCCOCCOCCOCCOCCOCCOCCOCCOCCOCCOCCOCCOCCOCCOCCOCCOCCOCCOCCOCCOCCOCCOCCOCCOCCOCCOCCOCCOCCOCCOCCOCCOCCOCCOCCOCCOCCOCCOC(=O)CCC(=O)O[C@H](CN1C[C@H]2CCCC[C@H]2C[C@H]1C(=O)NC(C)(C)C)[C@H](Cc1ccccc1)NC(=O)[C@H](CC(N)=O)NC(=O)c1ccc2ccccc2n1 ; strain: IIIB ; method: cytopathic effect / MTT ; result: 0.032 µM
[N-]=[N+]=N[C@@]1(CO)CO[C@@H](n2cnc3c(N)ncnc32)C1 ; result: >100 µg/mL
COc1cccc2c1N(C(=O)OC(C)C)C(CSC)C(=S)N2 ; strain: IIIB ; mutations: RT-Y181C ; method: cytopathic effect / XTT ; result: 0.07 µM